# This is a selection; strong and weak results do not stand in their true shares. Results filed as inconclusive are left out. For some assays here: Entries with a potency or affinity are not part of this list. Activity calls are given as the source filed them.
# Assays:
# [1] = Ebola virus entry assay, green fluorescence channel
# [2] = Ebola virus entry assay, blue channel fluorescence
# [3] = Ebola virus entry assay, ratio channel
# [4] = Ebola virus entry assay, green channel fluorescence
# [5] = Ebola virus entry assay, reporter ratio channel; Channel type: primary
# [6] = Ebola virus entry assay, blue channel (ratio component)
# [7] = qHTS assay for measurement of the activity of small molecule inhibitors on Zika virus induced Caspase-3 activity in human iPSC derived neural progenitor cells (hNPCs) (AID 1224857); conditions: hNPCs ZIKV-induced caspase-3/7, Caspase-Glo luminescence, 6 h; at 45.7 µM (top of the series); also: % of control where 0% means no effect; nearly all actives have a fitted effect of over 65% in size
# Summary of the method: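 Quantitative HTS format: human iPSC neural progenitors, 1 h compound pretreatment, ZIKV 2 FFU/cell for 6 h at 37 C. Percent inhibition derived from luminescent caspase-3/7 signal between uninfected and infected controls.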
# [8] = qHTS assay for measurement of the activity of small molecule inhibitors on Zika virus induced Caspase-3 activity in human astrocytoma cells (AID 1224859); conditions: SNB-19 ZIKV-induced caspase-3/7, luminescence, 6 h; at 45.7 µM (top of the series);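 also: plate controls were ZIKV-infected untreated cells for no effect and uninfected cells for full effect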
# Summary of the method: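 Readout is luminescence from Caspase-Glo 3/7 added after a 6 h ZIKV infection (2 FFU/cell) of compound-pretreated (1 h) SNB-19 cells; data expressed as % inhibition versus uninfected and infected wells.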
# [9] = NS1 protein of Zika virus - qHTS assay to identify small molecule inhibitors in human HEK 293 cells (AID 1347053); conditions: HEK293 ZIKV MR766 infection, NS1 TR-FRET, 24 h; at 46.1 µM (top of the series);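 also: plate controls were infected untreated cells for no effect and uninfected cells for full effect; nearly all actives have a fitted effect of over 55% in size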
# Summary of the method: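 HEK 293; 20 h pre-culture, 37 C/5% CO2; cpd 1 h pre-infection; ZIKV MR766, MOI = 0.5, 24 h, 37 C; TR-FRET NS1 readout (two anti-NS1 Abs); norm. to no-virus vs infected.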
# [10] = qHTS for Inhibitors of the Functional Ribonucleoprotein Complex (vRNP) of Lassa (LASV) Arenavirus: LASV Primary Screen - GLuc reporter signal (AID 1347082; calls by dose curve; tested in HEK293 reporter line; also: % is scaled to controls: 0 for no effect and ±100 for the full control effect; nearly all actives have a fitted effect of over 60% in size); conditions: LASV minigenome vRNP, Gaussia luciferase reporter; at 57.5 µM (top of the series)
# [11] = qHTS for Inhibitors of the Functional Ribonucleoprotein Complex (vRNP) of Lassa (LASV) Arenavirus: Viability assay - alamar blue signal for LASV Primary Screen (AID 1347083; calls by dose curve; tested in HEK293 reporter line; also: % is scaled to controls: 0 for no effect and ±100 for the full control effect; nearly all actives have a fitted effect of over 80% in size); conditions: cell viability, alamar blue fluorescence (LASV minigenome counter-screen); at 57.5 µM (top of the series)
# [12] = qHTS for Inhibitors of the Functional Ribonucleoprotein Complex (vRNP) of Lymphocytic Choriomeningitis Arenaviruses (LCMV): Viability assay - alamar blue signal for LCMV Primary Screen (AID 1347085; calls by dose curve; tested in HEK293 reporter line; also: % is scaled to controls: 0 for no effect and ±100 for the full control effect; nearly all actives have a fitted effect of over 80% in size); conditions: alamar blue viability counter-screen, LCMV vRNP screen cells; at 57.5 µM (top of the series)
# [13] = target: Nucleoprotein (Lymphocytic choriomeningitis virus (strain Armstrong)) (UniProt P09992); assay: qHTS for Inhibitors of the Functional Ribonucleoprotein Complex (vRNP) of Lymphocytic Choriomeningitis Arenaviruses (LCMV): LCMV Primary Screen - GLuc reporter signal (AID 1347086; calls by dose curve; also: % is scaled to controls: 0 for no effect and ±100 for the full control effect; nearly all actives have a fitted effect of over 70% in size); conditions: LCMV minigenome vRNP cell assay, Gaussia luciferase reporter; at 57.5 µM (top of the series)
# [14] = system: Zika virus NS2B-NS3 protease; assay: Primary screen GU AMC qHTS for Zika virus inhibitors (AID 1347154); conditions: Zika NS2B-NS3 unlinked protease, AMC fluorogenic substrate; at 54.1 µM (top of the series);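 also: 0% = no-inhibitor control and -100% = no-enzyme control; nearly all actives have a fitted effect of over 70% in size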
# Summary of the method: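 Fluorogenic AMC-substrate cleavage by noncovalent NS2B-NS3 protease complex (25 nM, pH 8.0 Tris buffer with Tween 20) followed for 15 minutes at room temperature (~20% conversion). Percent inhibition from ex340/em450 signal change, fitted by 4-parameter Hill equation.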
# [15] = Primary qHTS for inhibitors of La Crosse Virus (LACV) - induced cell death in SH-SY5Y cells (AID 1508616); conditions: SH-SY5Y LACV cytopathicity rescue, ATP luminescence, 6 d; at 4.29 µM (top of the series);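 also: top concentration of the series differs between compounds; 0% = infected DMSO wells and 100% = uninfected DMSO wells; higher means more rescue of cells from virus-induced death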
# Summary of the method: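 SH-SY5Y cells (6000/well) plated 24 h, then given compounds by pin transfer and LACV at 0.01 MOI for 6 days at 37C. Viability measured by ATPLite luminescence, normalized to infected DMSO and uninfected DMSO.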
# [16] = qHTS profiling of the MIPE4 collection as inhibitors of Plasmodium falciparum (3D7) proliferation (AID 743344; call rule not given here;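 also: scaled between DMSO vehicle wells and 0.29 µM artemisinin as full inhibition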); conditions: P. falciparum 3D7 in erythrocytes, SYBR Green DNA fluorescence, 72 h; at 28.5 µM (top of the series)
# [17] = qHTS profiling of the MIPE4 collection as inhibitors of Plasmodium falciparum (DD2) proliferation (AID 743345; call rule not given here); conditions: P. falciparum Dd2 in erythrocytes, SYBR Green DNA, 72 h; at 28.5 µM (top of the series)
# [18] = qHTS profiling of the MIPE4 collection as inhibitors of Plasmodium falciparum (DD2) proliferation (Rep 2) (AID 743346; call rule not given here); conditions: P. falciparum Dd2 in erythrocytes, SYBR Green DNA, 72 h; at 28.5 µM (top of the series)
# [19] = qHTS profiling of the MIPE4 collection as inhibitors of Plasmodium falciparum (HB3) proliferation (AID 743347; call rule not given here;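 also: plate controls were DMSO vehicle wells for no effect and artemisinin wells for full effect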); conditions: P. falciparum HB3 in erythrocytes, SYBR Green DNA, 72 h; at 28.5 µM (top of the series)
# [20] = Cytotoxicity counterscreen for inhibitors of SARS-CoV-2 cell entry (AID 1645845; calls by dose curve; also: nearly all actives have a fitted effect of over 50% in size); conditions: cell viability (SARS-CoV-2 entry assay cells); at 57.1 µM (top of the series)
# Summary of the method: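 48 h compound treatment (after 1 h preincubation), HEK293-ACE2 cells, 37 C/5% CO2; ATP luminescence endpoint; normalized to cell wells and media blanks.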
# [21] = Primary qHTS to identify inhibitors of SARS-CoV-2 cell entry (AID 1645846; calls by dose curve; also: nearly all actives have a fitted effect of over 45% in size); conditions: SARS-CoV-2 pseudovirus cell entry assay, luminescence; at 57.1 µM (top of the series)
# Summary of the method: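 HEK293 cells stably expressing human ACE2, pre-treated 1 h with compound, then infected with MLV particles pseudotyped with Wuhan-Hu-1 spike (C-terminal 19-aa truncation). Luciferase luminescence after 48 h at 37 °C, normalised to spike PP and bald PP.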
# [22] = system: Zika virus NS2B-NS3 protease (unlinked complex); assay: Primary screen GU Rhodamine qHTS for Zika virus inhibitors: Unlinked NS2B-NS3 protease assay (AID 1347159); conditions: Recombinant ZIKV NS2B-NS3 protease, Rhodamine110 substrate fluorescence; at 107 µM (top of the series); also: % is scaled to controls: 0 for no effect and ±100 for the full control effect; nearly all actives have a fitted effect of over 60% in size
# Summary of the method: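 Compounds, tested up to 114 microM, were incubated for 15 minutes with 25 nM unlinked NS2B-NS3 protease at pH 8.0. Cleavage of 1.5 microM Rhodamine110 substrate was then followed by fluorescence for 15 minutes.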
# [23] = system: Zika virus NS2B-NS3 protease (linked construct); assay: Primary screen NINDS Rhodamine qHTS for Zika virus inhibitors (AID 1347160); conditions: purified NS2B-NS3 protease, Rhodamine110 substrate fluorescence; at 57.1 µM (top of the series); also: % is scaled to controls: 0 for no effect and ±100 for the full control effect; nearly all actives have a fitted effect of over 55% in size
# Summary of the method: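 Percent inhibition, normalized to uninhibited and enzyme-free controls, is fitted to a 4-parameter Hill equation. Fluorescence change comes from a 15-min cleavage of 1.5 microM bis-peptide Rhodamine110 substrate by 25 nM linked NS2B-NS3 at room temperature.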
# [24] = Confirmatory qHTS for activators (rescue) of SARS-CoV-2 Cytopathic Effect (CPE) (AID 1508606; calls by dose curve; also: potency is read from the fitted curve at half-maximal effect; nearly all actives have a fitted effect of over 70% in size); conditions: Vero E6 SARS-CoV-2 CPE rescue, viability luminescence
# For efficacy in this document: 0% is about no effect.
smiles,measurement,setting,value
CCC(=O)N(c1ccccc1)C1CCNCC1,efficacy,[1],inactive: 11.1%
same,outcome,[2],inactive
same,outcome,[3],inactive
same,outcome,[4],inactive
same,outcome,[5],inactive
same,outcome,[6],inactive
same,"activity change, negative = inhibition",[7],inactive: -0.321%
same,"activity change, negative = inhibition",[8],inactive: 2.25%
same,"activity change, negative = inhibition",[9],inactive: -1.09%
same,"activity change, negative = inhibition",[10],inactive: -0.293%
same,"activity change, negative = reduced viability",[11],inactive: -1.32%
same,"activity change, negative = lower viability",[12],inactive: 17.1%
same,"activity change, negative = inhibition",[13],inactive: -2.55%
same,"activity change, negative = inhibition",[14],inactive: -9.06%
same,activity change,[15],inactive: -2.5%
CCOC(=O)N1CCC(=O)CC1,outcome,[4],inactive
same,outcome,[5],inactive
same,outcome,[6],inactive
same,"activity change, negative = inhibition",[7],inactive: 25.8%
same,"activity change, negative = inhibition",[8],inactive: 6.6%
same,"activity change, negative = inhibition",[9],inactive: -8.38%
same,"activity change, negative = inhibition",[10],inactive: -0.395%
same,"activity change, negative = reduced viability",[11],inactive: -4.51%
same,"activity change, negative = lower viability",[12],inactive: -3.2%
same,"activity change, negative = inhibition",[13],inactive: 4.26%
same,"activity change, negative = inhibition",[14],inactive: -4.71%
same,activity change,[15],inactive: -0.583%
CCOC(=O)C(=O)CBr,"parasite growth, % of DMSO control",[16],84.5%
same,"parasite growth remaining, % of DMSO control (lower = more inhibition)",[17],101%
same,"parasite growth, % of control (lower = inhibition)",[18],93.2%
same,"growth, % of control",[19],104%
same,"activity change, negative = inhibition",[7],inactive: 13.5%
same,"activity change, negative = inhibition",[8],inactive: -11.3%
same,"activity change, negative = inhibition",[9],inactive: 1.79%
same,"activity change, negative = inhibition",[10],inactive: -1.91%
same,"activity change, negative = reduced viability",[11],inactive: 10.7%
same,"activity change, negative = lower viability",[12],inactive: -1.6%
same,"activity change, negative = inhibition",[13],inactive: 6.4%
same,"activity change, negative = inhibition",[14],inactive: -3.49%
same,outcome,[20],inactive
same,"activity change, negative = inhibition",[21],-29.2%
CC(=O)N1CCc2ccc(N(C(=O)/C=C/c3cccc(C#N)c3)C3CCN(CCC4CCCC4)CC3)cc21,"activity change, negative = inhibition",[22],inactive: 1.78%
same,"activity change, negative = inhibition",[23],inactive: 26.8%
same,Potency,[24],active: 7.08 µM

# From PubChem BioAssay (NCATS)
